{"source": "paper PMC5704290", "system": "CC(C)(CO)[C@@H](O)C(=O)O", "assay": "purified protein", "settings": "pH 7.8; 25.0 °C", "data": [{"substance": "(Mycobacterium tuberculosis H37Rv)", "values": [{"measurement": "Km", "value": "1300 ± 100", "unit": "µM"}]}]}
